Biological target: RSVF-multi-4 with all five redesigned site V residues reverted to native
Assay: SPR

Substance: RSV90 Fab
- Kd: 490 nM
